Compound potency records, mixed from different reports. Data source: NIAID ChemDB in PubChem.

Common to all: target-level tests

Two numbers with a dash give a range or band.

{"structure": "CCSC(=O)NC[C@H]1O[C@@H](n2cc(I)c(=O)[nH]c2=O)C[C@@H]1O", "species": "Herpes simplex virus 1", "target": "Thymidine kinase", "measure": "IC50", "result": ">0.5 µM"}
{"structure": "O=C(P(=O)(O)O)P(=O)(O)O", "species": "Herpes simplex virus 2", "target": "DNA polymerase", "measure": "IC50", "result": "27 µM"}
{"structure": "O=C1C=CC(=O)c2c(O)cccc21", "species": "Herpes simplex virus 1", "target": "Protease", "measure": "IC50", "result": "9.3 µM"}
{"structure": "[N-]=[N+]=NC[C@H]1O[C@@H](n2ccc(=O)[nH]c2=O)C[C@@H]1O", "species": "Herpes simplex virus 1", "target": "Thymidine kinase", "measure": "IC50", "result": "3.7 µM"}
{"structure": "Oc1ccc2ccccc2c1O", "species": "Herpes simplex virus 1", "target": "Protease", "measure": "IC50", "result": "28.8 µM"}
{"structure": "Cc1nc(-c2ccc(NC(=O)CNCc3ccccc3)cc2)cs1", "species": "Herpes simplex virus 1", "target": "Primase", "measure": "IC50", "result": "1–100 µM"}
{"structure": "CC#Cc1cn([C@@H]2O[C@H](CO)[C@@H](O)[C@@H]2O)c(=O)[nH]c1=O", "species": "Herpes simplex virus 2", "target": "DNA polymerase", "measure": "IC50", "strain": "SC16", "result": "0.11 µM"}
{"structure": "O=C(O)C(Cl)(Cl)P(=O)(O)O", "species": "Herpes simplex virus 2", "target": "DNA polymerase", "measure": "inhibition", "tested at": "100 µM", "result": "0%"}
{"structure": "O=C(O)CP(=O)(O)O", "species": "Herpes simplex virus 2", "target": "DNA polymerase", "measure": "IC50", "result": "0.7 µM"}
{"structure": "O=P(O)(O)C(F)P(=O)(O)O", "species": "Herpes simplex virus 2", "target": "DNA polymerase", "measure": "IC50", "result": ">100 µM"}
{"structure": "CC(C)CC(=O)NC[C@H]1O[C@@H](n2cc(I)c(=O)[nH]c2=O)C[C@@H]1O", "species": "Herpes simplex virus 1", "target": "Thymidine kinase", "measure": "IC50", "result": "0.16 µM"}
{"structure": "CCOC(=O)P(=O)(O)OCC", "species": "Herpes simplex virus 1", "target": "DNA polymerase", "measure": "IC50", "result": ">35 µM"}
{"structure": "O=C(O)C(F)(Cl)P(=O)(O)O", "species": "Herpes simplex virus 2", "target": "DNA polymerase", "measure": "IC50", "result": ">100 µM"}
{"structure": "Oc1cc2ccccc2cc1O", "species": "Herpes simplex virus 1", "target": "Protease", "measure": "IC50", "result": ">100 µM"}
{"structure": "O=P(O)(O)C(Br)(Br)P(=O)(O)O", "species": "Herpes simplex virus 2", "target": "DNA polymerase", "measure": "IC50", "result": ">100 µM"}
{"structure": "CC(=O)NC[C@H]1O[C@@H](n2cc(I)c(=O)[nH]c2=O)C[C@@H]1OC(C)=O", "species": "Herpes simplex virus 1", "target": "Thymidine kinase", "measure": "IC50", "result": "0.91 µM"}
{"structure": "O=C(O)C(Br)P(=O)(O)O", "species": "Herpes simplex virus 2", "target": "DNA polymerase", "measure": "IC50", "result": "5.4 µM"}
{"structure": "Nc1ncnc2c1ccn2[C@@H]1O[C@H](COP(=O)(O)OP(=O)(O)OP(=O)(O)O)[C@@H](O)[C@@H]1O", "species": "Herpes simplex virus 2", "target": "DNA polymerase", "measure": "Ki", "result": "5 µM"}
{"structure": "CC(Cl)(C(=O)O)P(=O)(O)O", "species": "Herpes simplex virus 2", "target": "DNA polymerase", "measure": "inhibition", "tested at": "100 µM", "result": "0%"}
{"structure": "CC(=O)O[C@H]1C[C@H](n2ccc(=O)[nH]c2=O)O[C@@H]1CN=[N+]=[N-]", "species": "Herpes simplex virus 1", "target": "Thymidine kinase", "measure": "IC50", "result": ">2 µM"}
{"structure": "O=P(O)(O)OP(=O)(O)O", "species": "Herpes simplex virus 2", "target": "DNA polymerase", "measure": "IC50", "result": "500 µM"}
{"structure": "O=C(O)C(Br)(Br)P(=O)(O)O", "species": "Herpes simplex virus 2", "target": "DNA polymerase", "measure": "IC50", "result": ">100 µM"}
{"structure": "CCCC(C(=O)O)P(=O)(O)O", "species": "Herpes simplex virus 1", "target": "DNA polymerase", "measure": "IC50", "result": "200 µM"}
{"structure": "O=C(OCc1cccnc1)c1cccc(NC(=O)c2ccc(Cl)cc2O)c1", "species": "Herpes simplex virus", "target": "Primase", "measure": "IC50", "result": "1.1 µM"}
{"structure": "O=C(O)C(Cl)(Br)P(=O)(O)O", "species": "Herpes simplex virus 1", "target": "DNA polymerase", "measure": "IC50", "result": ">100 µM"}
{"structure": "O=C(O)C(=O)O", "species": "Herpes simplex virus 1", "target": "DNA polymerase", "measure": "IC50", "result": "115 µM"}

Conditions beyond the fields shown may differ between rows. ICn: concentration for n% inhibition. Inhibition is in % at the dose shown (toxicity tests: loss of growth or viability).